Taken from: PubChem BioAssay AID624099 (ICCB-Longwood, 2012)
Purpose: 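Host factors E2 relies on to silence an HPV18 LCR reporter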 (primary screen). Cells: human C33A cervical carcinoma cells (HPV-negative) stably expressing BPV1 E2 and an HPV18 LCR luciferase reporter. Reagents: siRNA pool against human genes, 40 nM. Duration: 72 h. Measurement: 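HPV18 LCR reporter light per well, converted to plate-wise z-scores that exclude control wells, and averaged over triplicate plates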. Reading the numbers: mean z-score and z-score: higher = stronger reporter signal, weaker E2 silencing. Rule for the call: 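Mean z ≥ 2 together with z ≥ 2 in two or more of the three replicates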.
Here is one part, drawn at random, of about 21,000 deposited reagents. 497 of all reagents (2.4%) count as active. 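Higher z means weaker E2 silencing; only reporter increases were scored, and knock-downs that hurt cell survival may mask genuine repressor factors.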 Entries without a mark were called inactive. No sequences are given here.

Gene | mean z-score | z-score, replicate A | z-score, replicate B | z-score, replicate C
ADCK5 (aarF domain containing kinase 5) | 0.48 | 0 | 0.84 | 0.6
TATDN2 (TatD DNase domain containing 2) | 0.37 | 0.29 | 0.42 | 0.41
LINC00339 (long independently transcribed non-coding RNA 339) | 1.8 | 1.31 | 2.02 | 2.07
ONECUT3 (one cut homeobox 3) | -1.65 | -1.81 | -1.28 | -1.85
PDCD2 (programmed cell death 2) | -0.12 | -0.04 | -0.37 | 0.04
B3GAT2 (beta-1,3-glucuronyltransferase 2) | 0.17 | 0.15 | 0.16 | 0.18
RNF14 (ring finger protein 14) | -0.3 | -0.28 | -0.34 | -0.28
PHLDA1 (pleckstrin homology like domain family A member 1) | 1.46 | 1.51 | 1.38 | 1.5
SCN7A (sodium voltage-gated channel alpha subunit 7) | -0.19 | -0.08 | -0.36 | -0.12
AK5 (adenylate kinase 5) | 0.4 | 0.03 | 0.76 | 0.41
IFI35 (interferon induced protein 35) | -0.19 | 0.01 | -0.32 | -0.25
LOC388528 (retired record) | 0.72 | 0.57 | 0.74 | 0.85
TMEFF1 | -0.18 | -0.22 | -0.15 | -0.16
TOM1L1 (target of myb1 like 1 membrane trafficking protein) | 1.59 | 1.47 | 1.53 | 1.75
DCUN1D4 (defective in cullin neddylation 1 domain containing 4) | 0.08 | -0.05 | 0.14 | 0.13
DIS3 (DIS3 exosome endoribonuclease and 3'-5' exoribonuclease) | -0.42 | -0.39 | -0.52 | -0.36
TSR1 (TSR1 ribosome maturation factor) | 0.66 | 0.74 | 0.47 | 0.76
LOC387912 (retired record) | 0.54 | 0.15 | 0.17 | 1.32
FBXW11 (F-box and WD repeat domain containing 11) | 1.41 | 1.15 | 1.33 | 1.75
MRPL47 (mitochondrial ribosomal protein L47) | -0.85 | -0.58 | -1 | -0.97
ZNF566 (zinc finger protein 566) | 0.16 | 0.03 | 0.05 | 0.41
ENTPD4 (ectonucleoside triphosphate diphosphohydrolase 4) | -0.93 | -0.97 | -1.02 | -0.8
PKHD1L1 (PKHD1 like 1) | -0.35 | 0.08 | -0.69 | -0.45
MARCHF5 (membrane associated ring-CH-type finger 5) | 0.58 | 0.3 | 0.76 | 0.69
H2BC12 (H2B clustered histone 12) | 0.68 | 0.65 | 0.65 | 0.75
STAT1 (signal transducer and activator of transcription 1) | 1.24 | 1.4 | 1.39 | 0.93
LOC93429 | 0.57 | 0.42 | 0.71 | 0.59
FANK1 (fibronectin type III and ankyrin repeat domains 1) | 0.43 | 0.32 | 0.87 | 0.11
ADGRF3 (adhesion G protein-coupled receptor F3) | -1.04 | -0.94 | -1 | -1.19
LOC391427 (retired record) | -0.68 | -1.04 | -0.64 | -0.37
TXN (thioredoxin) | -0.79 | -0.17 | -1.06 | -1.15
RPS10P29 (ribosomal protein S10 pseudogene 29) | -0.25 | -0.48 | -0.26 | -0.01
ESPNP (espin pseudogene) | 0.13 | 0.01 | 0.22 | 0.17
KIAA1586 | -0.3 | -0.44 | -0.59 | 0.12
RDM1 (RAD52 motif containing 1) | 0.25 | 0.09 | 0.17 | 0.49
CTXN2 (cortexin 2) | 1.43 | 1.68 | 1.14 | 1.48
EMID1 (EMI domain containing 1) | -0.56 | -0.32 | -0.28 | -1.09
LOC401518 (retired record) | 0.06 | 0.06 | 0.22 | -0.11
CAPZA3 (capping actin protein of muscle Z-line subunit alpha 3) | -0.84 | -0.73 | -1.09 | -0.7
RPL4P5 (ribosomal protein L4 pseudogene 5) | -3.55 | -3.6 | -4.1 | -2.95
ARPC3 (actin related protein 2/3 complex subunit 3) | -0.15 | -0.23 | -0.17 | -0.06
LOC390565 (retired record) | -0.48 | -0.62 | -0.43 | -0.4
NCBP3 (nuclear cap binding subunit 3) | 0.31 | 0.55 | 0.35 | 0.03
CNBD1 (cyclic nucleotide binding domain containing 1) | -1.22 | -1.5 | -1 | -1.17
SLC5A4 | -0.37 | -0.22 | -0.47 | -0.42
SCP2D1 (SCP2 sterol binding domain containing 1) | -0.89 | -1.09 | -1.04 | -0.54
PADI1 (peptidyl arginine deiminase 1) | -1.39 | -1.88 | -1.51 | -0.79
ANKRD28 (ankyrin repeat domain 28) | 0.6 | 0.43 | 0.5 | 0.88
PIP5K1A (phosphatidylinositol-4-phosphate 5-kinase type 1 alpha) | -0.15 | -0.27 | -0.3 | 0.12
LOC286359 | -0.26 | -0.09 | -0.18 | -0.5
COPG2 (coat protein complex I subunit gamma 2) | -0.25 | -0.52 | -0.42 | 0.2
ZNF586 (zinc finger protein 586) | -1.21 | -1.45 | -0.92 | -1.24
MGRN1 (mahogunin ring finger 1) | -0.06 | -0.37 | 0.19 | -0.01
ALDOB (aldolase, fructose-bisphosphate B) | 1.25 | 1.2 | 1.1 | 1.45
ADAMTS2 (ADAM metallopeptidase with thrombospondin type 1 motif 2) | -0.23 | 0.35 | -0.37 | -0.66
DYNLL1P3 (dynein light chain LC8-type 1 pseudogene 3) | -0.5 | -0.05 | -1.06 | -0.38
OR51B2 (olfactory receptor family 51 subfamily B member 2) | -0.37 | -0.56 | -0.58 | 0.02
